Pooled drug test results. Numbers come from NIAID ChemDB, via PubChem.

Shared fields: enzyme or target tests; organism: HIV-1; target: Reverse transcriptase; endpoint: inhibition

Neighbouring rows are from separate reports. Blank or dashed fields: not listed here. Inhibition is in % at the dose shown (toxicity tests: loss of growth or viability).

| SMILES | strain or isolate | mutations | read by | dose | result |
|---|---|---|---|---|---|
| CCN1C(=O)c2ccnnc2Oc2c(C)cc(C)cc21 |  |  | ELISA | 330 µM | 88% |
| COC(CC1O[C@H]([C@H](C)[C@@H](O)[C@@H](C)/C=C/C=C(/C)C(=O)NC2=CC(=O)c3c(c(O)c(C)c4oc(C)cc34)C2=O)[C@@H](C)[C@H](OC(C)=O)[C@@H]1C)OC |  |  | ELISA | 300 µM | 0% |
| O=c1[nH]c(SCc2cn[nH]n2)nc(-c2ccc(I)cc2)c1Cl |  |  | RT activity / absorbance | 100 µg/mL | 90.5% |
| O=C(c1cc2ccccc2[nH]1)N1CCN(C(=O)c2cccc3[nH]ccc23)CC1 |  |  | nucleotide incorporation / fluorescence | 100 µM | 38% |
| CCN1c2ncccc2C(=O)Nc2c(CO)cc(=O)[nH]c21 |  | RT-Y181C |  | 25 µM | 1% |
| COc1ccc2[nH]c(=O)c(CNC3CCCC3)cc2c1 |  |  | RT activity / absorbance | 20 µM | -14.1% |
| COc1cc(O)c2c(=O)cc(-c3ccc(Oc4cc(-c5cc(=O)c6c(O)cc(O)cc6o5)ccc4O)cc3)oc2c1 |  |  | nucleotide incorporation / radiometric | 200 µg/mL | 90.1% |
| O=C(CC(=O)Nc1ccc2ccccc2n1)Nc1ccc(F)cn1 |  |  | RT activity / absorbance | 100 µM | 62.26% |
| CCCCCCCCCCCCCCCC(=O)Nc1c(O)cc(S(=O)(=O)O)c2ccccc12 |  |  | RT activity | 50 µM | 97% |
| COc1ccc2[nH]c(=O)c(CN(C(=O)c3ccccc3)C3CC3)cc2c1 |  |  | RT activity / absorbance | 20 µM | -9.9% |
| CCN1C(=O)c2ccnnc2Oc2ccc(C)cc21 |  |  | ELISA | 330 µM | 61% |
| S=C(NCCc1ccccn1)Nc1ccncn1 |  |  |  | 3.3 µM | 36% |
| C=C(C)C1CC[C@]2(C(=O)O)CC[C@]3(C)C(CCC4[C@@]5(C)C[C@@H](O)[C@H](C(=O)[O-])C(C)(C)C5CC[C@]43C)C12 |  |  | RT activity | 200 µg/mL | 97.1% |
| O=c1cc(-c2ccc(O)cc2)oc2c([C@@H]3O[C@H](CO)[C@@H](O)[C@H](O)[C@H]3O)c(O)cc(O)c12 |  |  | nucleotide incorporation / radiometric | 200 µg/mL | 42.1% |
| CCN1c2ncccc2C(=O)Nc2c(C3OCCCO3)cc(OC)nc21 | WT |  |  | 52 µM | 1% |
| CCN1c2ncc(CCc3ccncc3)cc2C(=O)N(C)c2ccc(C#N)nc21 | WT |  | nucleotide incorporation / radiometric | 1 µM | 82% |
| O=C(Oc1cc(S(=O)(=O)O)cc2cc(S(=O)(=O)O)ccc12)c1ccc(-c2ccc(C(=O)Oc3cc(S(=O)(=O)O)cc4cc(S(=O)(=O)O)ccc34)cc2)cc1 |  |  | RT activity | 50 µM | 99.8% |
| CC(C)(O)CCc1c(O[C@@H]2O[C@H](CO)[C@@H](O)[C@H](O)[C@H]2O)cc2oc(-c3ccc(O)c(O)c3)c(O)c(=O)c2c1O |  |  | nucleotide incorporation / radiometric | 200 µg/mL | 18.5% |
| O=C(CC(=O)Nc1cc(=O)cc[nH]1)Nc1ccc2ccccc2n1 |  |  | RT activity / absorbance | 100 µM | 87.33% |
| Cc1cn([C@H]2C[C@H](F)[C@@H](COP(=O)(O)OP(=O)(O)OP(=O)(O)O)O2)c(=O)[nH]c1=O | IIIB |  |  | 0.1 µM | 38% |
| CCN1c2ncc(CCc3ccc(N(C)S(C)(=O)=O)cc3)cc2C(=O)N(C)c2ccc(Cl)nc21 | WT |  | nucleotide incorporation / radiometric | 1 µM | 48% |
| CCCCCCCCCCCCCCCC(=O)NCC1OC(n2cnc3c(N)ncnc32)C(OP(=O)(O)OCC2OC(n3cnc4c(N)ncnc43)C(OP(=O)(O)OCC3CC(O)C(n4cnc5c(N)ncnc54)O3)C2O)C1O | IIIB |  | RT activity | 100 µM | 60.2% |
| CCN1c2ncccc2C(=O)Nc2c(Cc3ccccc3)cc(=O)[nH]c21 |  | RT-Y181C |  | 42 µM | 1% |
| NCC1OC(n2cnc3c(N)ncnc32)C(OP(=O)(O)OCC2OC(n3cnc4c(N)ncnc43)C(OP(=O)(O)OCCOCn3cnc4c(N)ncnc43)C2O)C1O | IIIB |  | RT activity | 100 µM | 63% |
| CCN1c2ncc(C3(c4ccccc4)CO3)cc2C(=O)N(C)c2ccc(Cl)nc21 | WT |  | nucleotide incorporation / radiometric | 1 µM | 76% |
| Cc1cccc(NC(=O)CC(=O)Nc2ccc3ccccc3n2)n1 |  |  | RT activity / absorbance | 100 µM | 82.2% |
| CCCN1C(=O)c2ccnnc2Oc2ccc(C)cc21 |  |  | ELISA | 330 µM | 83% |
| CCN1c2nc(Cl)ccc2NC(=O)c2cc(CCc3cccc(NS(C)(=O)=O)c3)cnc21 | WT |  | nucleotide incorporation / radiometric | 1 µM | 59% |
| O=C(Nc1ccc(S(=O)(=O)O)c2cccc(S(=O)(=O)O)c12)c1ccc(C(=O)Nc2ccc(S(=O)(=O)O)c3cccc(S(=O)(=O)O)c23)cc1 |  |  | RT activity | 50 µM | 10% |
| O=C(CC(=O)Nc1ccc2ccccc2n1)Nc1cc(C(F)(F)F)ccn1 |  |  | RT activity / absorbance | 100 µM | 64.2% |
| CC(=O)O[C@@H]([C@@H](C)[C@H](OC(C)=O)[C@H](C)/C=C/C=O)[C@H](C)[C@@H](OC(C)=O)[C@@H](C)/C=C/C=C(/C)C(=O)NC1=CC(=O)c2c(c(O)c(C)c3oc(C)cc23)C1=O |  |  | ELISA | 300 µM | 0% |
| CCN1c2ncccc2C(=O)Nc2c(C=O)cc(OC)nc21 |  | RT-Y181C |  | 38 µM | 1% |
| CC(C)=CCC/C(C)=C/Cc1c(O)cc(O)c(C/C=C(\C)CCC=C(C)C)c1C(=O)c1c(O)cc(O)cc1O |  |  | nucleotide incorporation / radiometric | 200 µg/mL | 97.7% |
| CC[C@H](/C=C/[C@@H](C)[C@H]1CC[C@H]2[C@@H]3CC=C4C[C@@H](O[C@@H]5O[C@H](CO)[C@@H](O)[C@H](O)[C@H]5O)CC[C@]4(C)[C@H]3CC[C@]12C)C(C)C |  |  | RT activity | 200 µg/mL | 0% |
| O=C(CCn1c(=O)[nH]c2ccccc2c1=O)N[C@@H](Cc1c[nH]c2ccccc12)C(=O)O |  |  | nucleotide incorporation / fluorescence | 100 µM | 0% |
| S=C(NCCc1ccccn1)Nc1ncccn1 |  |  |  | 330 µM | 73% |
| O=c1[nH]c(SCc2cn[nH]n2)nc(-c2ccc(F)cc2)c1Cl |  |  | RT activity / absorbance | 100 µg/mL | 92.5% |
| COc1cccc2cc(CN(C(=O)c3ccccc3)C3CC3)c(=O)[nH]c12 |  |  | RT activity / absorbance | 20 µM | -4% |
| O=C(CCCCCCCCC(=O)Nc1ccc(S(=O)(=O)O)c2cccc(S(=O)(=O)O)c12)Nc1ccc(S(=O)(=O)O)c2cccc(S(=O)(=O)O)c12 |  |  | RT activity | 50 µM | 43% |
| N#Cc1ccnc(NC(=O)CC(=O)Nc2ccc3ccccc3n2)c1 |  |  | RT activity / absorbance | 100 µM | 62.73% |
| CCN1c2ncccc2C(=O)Nc2c(CO)cc(-c3cccc(OC)c3)nc21 | WT |  |  | 16 µM | 1% |
| C/C1=C\C=C\C2(C)C=C(CO[C@H]3O[C@H](CO)[C@H](O)[C@H](O)[C@H]3O)C(C)CC23OC([O-])C(C3=O)C(O)/C=C/C2(C)C=C(C=O)C(C)CC23OC([O-])C(C3=O)C(O)/C(C)=C/C=C/C2C=C(CO[C@H]3O[C@H](CO)[C@H](O)[C@H](O)[C@H]3O)C(C)CC23OC([O-])C(C3=O)C(O)/C=C/C2(C)C=C(C=O)C(C)CC23OC([O-])C(C3=O)C1O | IIIB |  | RT activity | 20 µg/mL | 81.6% |
| O=C1NC(c2c[nH]c3ccc(O)cc23)=C/C1=C1\C(=O)NC2C=CC=CC12 |  |  | RT activity / ELISA | 100 µM | 27.87% |
| CC(=O)O[C@H]1[C@H](C)[C@@H]([C@H](C)[C@@H](O)[C@@H](C)/C=C/C=C(/C)C(=O)NC2=CC(=O)c3c(c(O)c(C)c4oc(C)cc34)C2=O)OC(CC=O)[C@H]1C |  |  | ELISA | 300 µM | 0% |
| CCCCCCCCCCCCCCCC(=O)Nc1ccc(S(=O)(=O)O)c2ccccc12 |  |  | RT activity | 50 µM | 0% |
| COc1ccc2c(c1)NC(=O)c1cc(Cl)nnc1O2 |  |  | ELISA | 33 µM | 23% |
| COc1ccc(-c2nc3c(=O)n(C)c(=O)[nH]c3n2CCc2ccccc2)cc1 |  |  | nucleotide incorporation / fluorescence | 100 µM | 4% |
| O=C(O)c1cc(NS(=O)(=O)c2cccc3c(S(=O)(=O)Nc4cc(C(=O)O)c(O)c(S(=O)(=O)O)c4)cccc23)cc(S(=O)(=O)O)c1O |  |  | RT activity | 50 µM | 25% |
| CCCCCCCCCCCCCCCC(=O)NCC1OC(n2cnc3c(N)ncnc32)C(OP(=O)(O)OCC2CC(OP(=O)(O)OCC3OC(n4cnc5c(N)ncnc54)C(O)C3O)C(n3cnc4c(N)ncnc43)O2)C1O | IIIB |  | RT activity | 100 µM | 84.5% |
| O=C(CC(=O)Nc1ccc2ccccc2n1)Nc1ccc(C(F)(F)F)cn1 |  |  | RT activity / absorbance | 100 µM | 63% |
| O=C(CCCCCCCCC(=O)Nc1cc(S(=O)(=O)O)cc2cc(S(=O)(=O)O)cc(O)c12)Nc1cc(S(=O)(=O)O)cc2cc(S(=O)(=O)O)cc(O)c12 |  |  | RT activity | 50 µM | 100% |
| COc1cccc2cc(CNC3CCCC3)c(=O)[nH]c12 |  |  | RT activity / absorbance | 20 µM | -40.1% |
| O=c1cc(-c2ccc(O)c(-c3c(O)cc4oc(-c5ccc(O)cc5)cc(=O)c4c3O)c2)oc2cc(O)cc(O)c12 |  |  | nucleotide incorporation / radiometric | 200 µM | 95.5% |
| Cc1cc(C)c(S(=O)(=O)Nc2cc(C(=O)O)c(O)c(S(=O)(=O)O)c2)c(C)c1S(=O)(=O)Nc1cc(C(=O)O)c(O)c(S(=O)(=O)O)c1 |  |  | RT activity | 50 µM | 98% |
| COc1ccc(-c2n[nH]c(C)c2Oc2ccc3c(c2)OCCCO3)c(O)c1 |  |  | nucleotide incorporation / fluorescence | 100 µM | 28% |
| CCN1c2ncccc2C(=O)Nc2c(C=O)cc(-c3cccc(OC)c3)nc21 |  | RT-Y181C |  | 63 µM | 1% |
| COc1cccc2cc(CN(C(=O)c3ccccc3)C3CCCCC3)c(=O)[nH]c12 |  |  | RT activity / absorbance | 20 µM | -19.4% |
| CC(=O)O[C@H]1CC[C@@]2(C)[C@@H](CC[C@@]3(C)[C@H]2CC=C2[C@@H]([C@H](C)CC/C=C(\C)C(=O)O)CC[C@@]23C)C1(C)C |  |  | nucleotide incorporation / radiometric | 200 µg/mL | 96.2% |
| Nc1ccc(S(=O)(=O)O)c2ccccc12 |  |  | RT activity | 50 µM | 12% |
| COc1cccc2cc(CN(C(=O)c3ccccc3)C3CCCC3)c(=O)[nH]c12 |  |  | RT activity / absorbance | 20 µM | -31.4% |

The last 9 rows once more:

SMILES,strain or isolate,mutations,read by,dose,result
COc1cccc2cc(CNC3CCCC3)c(=O)[nH]c12,,,RT activity / absorbance,20 µM,-40.1%
O=c1cc(-c2ccc(O)c(-c3c(O)cc4oc(-c5ccc(O)cc5)cc(=O)c4c3O)c2)oc2cc(O)cc(O)c12,,,nucleotide incorporation / radiometric,200 µM,95.5%
Cc1cc(C)c(S(=O)(=O)Nc2cc(C(=O)O)c(O)c(S(=O)(=O)O)c2)c(C)c1S(=O)(=O)Nc1cc(C(=O)O)c(O)c(S(=O)(=O)O)c1,,,RT activity,50 µM,98%
COc1ccc(-c2n[nH]c(C)c2Oc2ccc3c(c2)OCCCO3)c(O)c1,,,nucleotide incorporation / fluorescence,100 µM,28%
CCN1c2ncccc2C(=O)Nc2c(C=O)cc(-c3cccc(OC)c3)nc21,,RT-Y181C,,63 µM,1%
COc1cccc2cc(CN(C(=O)c3ccccc3)C3CCCCC3)c(=O)[nH]c12,,,RT activity / absorbance,20 µM,-19.4%
CC(=O)O[C@H]1CC[C@@]2(C)[C@@H](CC[C@@]3(C)[C@H]2CC=C2[C@@H]([C@H](C)CC/C=C(\C)C(=O)O)CC[C@@]23C)C1(C)C,,,nucleotide incorporation / radiometric,200 µg/mL,96.2%
Nc1ccc(S(=O)(=O)O)c2ccccc12,,,RT activity,50 µM,12%
COc1cccc2cc(CN(C(=O)c3ccccc3)C3CCCC3)c(=O)[nH]c12,,,RT activity / absorbance,20 µM,-31.4%